1 sequence from doi:10.1101/2024.04.02.587325 can be followed below.

The exact form of at least one protein or probe is not confirmed. At least one verdict rests on a figure or table, not on a statement of the authors.

For data set [1], the target named is MexR (Pseudomonas aeruginosa) (UniProt P52003). Kind of data set: SAXS. The following applies: rigid-body models, ~30 degree DNA bend in linker (Model 3).
The target is the same in data set [2]. Kind of data set: SEC-MALS-RI. The following applies: complex 98 kDa, 4 MexR : 1 dsDNA. In general terms: In gel filtration, larger molecules generally elute earlier.

As for “AAATGTGGTTGATCCAGTCAACTATTTTGCTTATTTTAGTTGACCTTATCAACCTTGTTT (double strand) [60 bp mexR-mexA operator DNA (PI+PII)]”, the binding result in data set [1] and in data set [2] was “binds” each time.
